Pooled drug test results. Numbers come from NIAID ChemDB, via PubChem.

Shared fields: tests in culture; organism: Human cytomegalovirus; cell line: MRC-5; read-out: EC50

Blank or dashed fields: not listed here.

structure	strain or isolate	read by	result
CCCCCCCCCCCCCCCCCCOCCOP1(=O)CO[C@@H](Cn2ccc(N)nc2=O)CO1	AD169		0.0001 µM
CC(O)c1cn([C@@H]2O[C@H](CO)[C@@H](O)[C@@H]2O)c(=S)[nH]c1=O	T-137	plaque count	>213 µM
O=C(NCCc1ccccc1)C1=Cc2ccncc2CC1	D16	plaque count	4.1 µM
CCCCCCCCCCCCCCCCCCOCCOP(=O)(O)CO[C@H](CO)Cn1ccc(N)nc1=O	AD169	plaque count	0.0009 µM
c1coc(-c2cc3ccccn3c2)c1	AD169	plaque count	>100 µM
Nc1ccn(C[C@@H](CO)OCP(=O)(O)O)c(=O)n1	AD169	plaque count	0.04 µg/mL
Nc1nc2c(ncn2COC(CO)CO)c(=O)[nH]1	C8910	plaque count	1.4 µM
Nc1nc2c(ncn2COC(CO)CO)c(=O)[nH]1	Isolate 1558	ELISA	3.25 µM
Nc1nc2c(ncn2COC2COP(=O)(O)OC2)c(=O)[nH]1	DAVIS	plaque count	6.1 µM
OC[C@H]1O[C@@H](n2c(Br)nc3cc(Cl)c(Cl)cc32)[C@H](O)[C@@H]1O	1038RC	plaque count	6 µM
c1ccc(-c2cc3ccccn3c2)nc1	AD169	plaque count	>100 µM
Nc1ccn(C[C@H]2COP(=O)(O)CO2)c(=O)n1	AD169 (ganciclovir foscarnet-susceptible)	plaque count	0.51 µM
CC(C)Nc1nc2cc(Cl)c(Cl)cc2n1[C@H]1O[C@@H](CO)[C@H](O)[C@@H]1O	C9213	hybridisation	0.04 µM
CCCCCCOC(=O)c1ccc2cc(-c3ccccc3)cn2c1	AD169	plaque count	>100 µM
CCOP(=O)(O)CCC(CO)OCn1cnc2c(=O)[nH]c(N)nc21	EC (ganciclovir-susceptible)	plaque count	8 µg/mL
Nc1ccn(C[C@@H](CO)OCP(=O)(O)O)c(=O)n1	C8914-6 drug-resistant mutant	plaque count	0.99 µM
Fc1cccc(-c2cc3ccccn3c2)c1	AD169	plaque count	>100 µM
CCc1cn([C@H]2C[C@H](O)[C@@H](CO)O2)c(=S)nc1N	T-137	plaque count	>277.4 µM
Nc1nc2c(ncn2[C@@H]2C[C@H](CO)[C@H]2CO)c(=O)[nH]1	PC92 (ganciclovir- foscarnet-susceptible)	plaque count	4.01 µM
CCCCOC(=O)c1ccc2cc(-c3ccccc3)cn2c1	AD169	plaque count	>100 µM
CCCc1cn([C@H]2C[C@H](O)[C@@H](CO)O2)c(=S)[nH]c1=O	AD169	plaque count	>277.6 µM
CC(C)Oc1ccccc1CNC(=O)c1ccc2cnccc2n1	AD169	plaque count	0.05 µM
Nc1ccn(C[C@H]2COP(=O)(O)CO2)c(=O)n1.O=C(O)P(=O)(O)O	PAAR	plaque count	0.93 µM
C=Cc1cn([C@@H]2O[C@H](CO)[C@@H](O)[C@@H]2O)c(=S)nc1N	T-137	plaque count	57.3 µM
Nc1nc2c(ncn2[C@@H]2C[C@H](CO)[C@H]2CO)c(=O)[nH]1.O=C(O)P(=O)(O)O	PC92 (ganciclovir- foscarnet-susceptible)	plaque count	1.21 µM
Nc1nc(=S)n([C@@H]2O[C@H](CO)[C@@H](O)[C@@H]2O)cc1CO	AD169	plaque count	132 µM
CCCCc1ccc2cc(-c3ccccc3)cn2c1	AD169	plaque count	>100 µM
Nc1nc(=S)n([C@@H]2O[C@H](CO)[C@@H](O)[C@@H]2O)cc1/C=C/c1ccccc1	T-137	plaque count	>213 µM
Nc1nc2c(ncn2COC(CO)CO)c(=O)[nH]1	AD169	plaque count	4.5 µM
CCc1cn([C@@H]2O[C@H](CO)[C@@H](O)[C@@H]2O)c(=S)[nH]c1=O	AD169	plaque count	>213 µM
COc1ccccc1CNC(=O)C1=Cc2ccncc2CC1	C8805-37	plaque count	27.1 µM
O=c1[nH]c(=S)n([C@@H]2O[C@H](CO)[C@@H](O)[C@@H]2O)cc1/C=C/c1ccccc1	T-137	plaque count	>213 µM
O[C@@H]1[C@H](O)[C@H](O)CO[C@H]1n1c(Br)nc2cc(Cl)c(Cl)cc21	4760REC (V715M)	plaque count	1.3 µM
Nc1nc2c(ncn2C[C@@H]2CC[C@@H](P(=O)(O)O)O2)c(=O)[nH]1	C8805-37 (ganciclovir-resistant)	plaque count	0.32 µg/mL
CCc1cn([C@H]2C[C@H](O)[C@@H](CO)O2)c(=S)[nH]c1=O	93-1R	plaque count	>277.6 µM

Repeating the final 5 entries:

structure,strain or isolate,read by,result
COc1ccccc1CNC(=O)C1=Cc2ccncc2CC1,C8805-37,plaque count,27.1 µM
O=c1[nH]c(=S)n([C@@H]2O[C@H](CO)[C@@H](O)[C@@H]2O)cc1/C=C/c1ccccc1,T-137,plaque count,>213 µM
O[C@@H]1[C@H](O)[C@H](O)CO[C@H]1n1c(Br)nc2cc(Cl)c(Cl)cc21,4760REC (V715M),plaque count,1.3 µM
Nc1nc2c(ncn2C[C@@H]2CC[C@@H](P(=O)(O)O)O2)c(=O)[nH]1,C8805-37 (ganciclovir-resistant),plaque count,0.32 µg/mL
CCc1cn([C@H]2C[C@H](O)[C@@H](CO)O2)c(=S)[nH]c1=O,93-1R,plaque count,>277.6 µM

ECn: concentration that inhibits the pathogen or its effect by n%. Lines come from different laboratories, so protocols vary.